Compound potency records, mixed from different reports. Data source: NIAID ChemDB in PubChem.

Common to all: toxicity to cultured cells; cells: VERO; endpoint: CC50

CCn is the concentration with n% toxicity to the cells.

CN(C)c1ccc(-c2nnc3c(c(=O)n(C)c(=O)n3C)[n+]2[O-])cc1 ; value: 3 µg/mL
NC(=O)c1[nH]nc([C@@H]2O[C@H](CO)[C@@H](O)[C@H]2O)c1O ; read by: neutral red ; value: 33 µg/mL
CCc1nc2ccc(NCCN(C)C)c3c(=O)c4ccccc4n1c23 ; value: 3.38 µg/mL
CCn1cc(C(=O)NCCN)c(=O)c2ccc(-c3ccncc3)cc21 ; value: >100 µg/mL
CC(C)(C)OC(=O)N1[C@@H]2CC(n3cnc4c(N)ncnc43)[C@H]1c1ccccc12 ; read by: MTS ; value: >132 µM
CCn1cc2c(=O)onc-2c2ccc(-c3ccncc3)cc21 ; value: >100 µg/mL
O=C(NC1N=C(c2ccccc2)c2ccccc2NC1=O)c1cccc(C(F)(F)F)c1 ; value: 2.5 µM
Cc1ccc(/C=N/NC(=O)c2ccncc2)cc1 ; value: >62.5 µg/mL
CC(C)(C)OC(=O)N1C[C@H]2C[C@@H]1CC2n1cnc2c(N)ncnc21 ; read by: MTS ; value: >151 µM
O=C(Cc1ccccc1C(F)(F)F)NC1N=C(c2ccccc2)c2ccccc2NC1=O ; value: 2 µM
O=c1[nH]c(=O)n([C@@H]2O[C@H](CO)[C@@H](O)[C@H]2O)cc1F ; value: 0.32 µg/mL
OC(c1cc(-c2ccccc2)nc2ccc(Cl)cc12)C1CCCCN1 ; value: 3.2 µg/mL
O=c1[nH]cnc2c([C@@H]3O[C@H](CO)[C@@H](O)[C@H]3O)[nH]nc12 ; value: 25 µg/mL
COc1ccccc1CC(=O)NC1N=C(c2ccccc2)c2ccccc2NC1=O ; value: 5 µM
NC(=O)c1cn(-c2ccc(F)cc2)c2cc(-c3ccncc3)ccc2c1=O ; value: >6.25 µg/mL
NC(=S)NNC(=O)c1ccc([N+](=O)[O-])cc1 ; value: 56 µg/mL
CC(C)(C)OC(=O)N1[C@H]2CC[C@@H]1C(n1cnc3c(Cl)ncnc31)C2 ; read by: MTS ; value: 85 µM
CCCCC1=NCCc2c1cc1c([nH]c3ccccc31)c2C ; value: 1.8 µg/mL
COc1ccc(C(=O)NC2N=C(c3ccccc3)c3ccccc3NC2=O)cc1 ; value: 1.5 µM
CCn1cc(C(N)=O)c(=O)c2ccc(-c3cc(C)nc(C)c3)cc21 ; value: >12.5 µg/mL
CCOC(=O)[C@H]1O[C@@H]([C@@]2(C)O[C@]3(O[C@]4(C=C[C@H]3O)O[C@H]([C@@H](C)C(=O)[C@@H](C)[C@@H](O)[C@H](C)C[C@H](C)c3c(Cl)cc(C)c(O)c3C(=O)O)[C@@H](C)C[C@H]4C)[C@H](C)[C@H]2OC)C[C@H]1O ; value: 1.68 µg/mL
CC(C)(C)OC(=O)N1[C@@H]2CC(Nc3ncnc(Cl)c3N)[C@H]1c1ccccc12 ; read by: MTS ; value: >112 µM
[CH3][Sn]([CH3])([Br])[Br].c1cnc2c(c1)ccc1cccnc12 ; value: 1.43 µg/mL
NC(=O)c1c(O)c2ccc(-c3ccncc3)cc2n(-c2ccc(F)cc2)c1=O ; value: >100 µg/mL
O=c1cnn([C@@H]2O[C@H](CO)[C@@H](O)[C@H]2O)c(=O)[nH]1 ; value: 201 µg/mL
CC(C)(C)OC(=O)N1C[C@H]2C[C@@H]1CC2n1cnc2c(NC3CC3)ncnc21 ; read by: MTS ; value: >135 µM
CC1=C(/C=C/C(C)=N/NC(=O)c2ccncc2)C(C)(C)CCC1 ; value: 12 µg/mL
O=C(NC1N=C(c2ccccc2)c2cc(Cl)ccc2NC1=O)c1ccco1 ; value: 1.5 µM
CC(C)OC(=S)Nc1ccc(Cl)c(COC(C)(C)C)c1 ; value: >10 µg/mL
CC(C)(C)OC(=O)N1[C@@H]2CC(n3cnc4c(Cl)ncnc43)[C@H]1c1ccccc12 ; read by: MTS ; value: 12 µM

Repeating the final 3 entries:

O=C(NC1N=C(c2ccccc2)c2cc(Cl)ccc2NC1=O)c1ccco1 ; value: 1.5 µM
CC(C)OC(=S)Nc1ccc(Cl)c(COC(C)(C)C)c1 ; value: >10 µg/mL
CC(C)(C)OC(=O)N1[C@@H]2CC(n3cnc4c(Cl)ncnc43)[C@H]1c1ccccc12 ; read by: MTS ; value: 12 µM

Neighbouring rows are from separate reports.